Laboratory results: the supplement of paper PMC9931576
Human monoclonal antibodies against the spike receptor-binding domain (heavy:light variable regions). IC50 against pseudoviruses bearing the spike of naturally observed variants; lower = stronger; >10 µg/ml means not reached at the top dose. No active / inactive call. The stated detection limit is 0.0005 µg/ml; values near or below 0.001 µg/ml lie at the floor of the assay.

B1: BD55-6619 (protein)
chain 1: QVQLVQSGADVKKPGASVKVSCKASGYTFTNFAMHWVRQAPGQSLEWLGWINPRNGNTRFSQKFQGRVAISRDISATTVYMELSRLRSEDTAVYYCARDHYDSSGYSFPPLYWGQGTQVTVSS
chain 2: DIVMTQSPDSLAVSLGERATINCRSSQSVLLDSDNRSYLAWYQQKPGQPPKLLIYWASTRESGVPDRFSGGGSGTDFTLTISSLQAEDVAVYYCQQYYTTPFYTFGQGTKLEIK
B2: BD55-6610 (protein)
chain 1: QVQLVQSGAEVKKPGASVKVSCKASGYTFSNYGISWVRQAPGQGLEWMGWISGYSGKTDYAQKFQGRVTLTTDTSPSTAYMELRSLRSDDTAVYYCARDRYSYLYTDYDPFDSWGQGTLVTVSS
chain 2: DVVMTQSPLSLPVTLGQPASISCRSSQSLVYSDGNIFLSWFHQRPGQSPRRLIYKVSNRDSGVPDRFSGSGSGTDFTLKISRVEAEDVGVYYCMQGTHWPRTFGQGTRMEIK
B3: BD55-6614 (protein)
chain 1: QVQLVQSGSELKKPGASVKVSCKASGYTFSGNAINWVRQAPGQGLEWMGWINTDTGNPTYAQGFTGRFVFSLDTSVGTAFLHISNLKAEDTAVYYCARGGGLYDSSGFYEGGLYYHYYMDVWGKGTTVTVSS
chain 2: EVVVTQSPGTLSLSPGETATLSCRASQSVAGSYLAWYQQKPGQAPRLLIFDTSTRATGIPDRFSGSGSGTDFTLTISRLEPEDFAFYYCQQFATSPYTFGQGTKLEIK
B4: BD55-6604 (protein)
chain 1: QVQLVQSGAEVRKPGASVKVSCKASGYIFTSYDINWVRQATGQGLEWMGWVNPNSGDTGYAHKFQGRVTMTGDTSISTAYMELSGLTSEDTAVYYCTIGASLPKYYYGSGSHWGQGTLVTVSS
chain 2: DIQMTQSQSSLSASVGDRVTITCRASQTINYYLNWYQQKPGKAPKLLIHAASTLQSGVPSRFSGSGSGTDFTLTISSLQPEDFATYYCQQSYSFPYTFGQGTKLEIK
B5: BD55-6615 (protein)
chain 1: QVQLVQSGAEVKKPGASVRVACRASGYTFTSQDINWVRQATGQGPEWMGWMNPKSGNTGYAQKFQARLTMTRNTSTSTAYMELSSLRSEDTAVYYCAGYSGSGRHYPDYYYGLDVWGQGTTVTVSS
chain 2: DIQMTQSPSALSASVGDRVTITCRASQSISDYLNWYQQKPGKAPKVLIYAATSLISGVPSRFSGRGSGTDFTLTISSLQPEDFATYYCQQSYSTPPTFGQGTKLEIK
B6: BD55-6607 (protein)
chain 1: QVQLVQSGAEVKKPGASVKVSCKTSGYFVDSYAIHWLRQAPGHRLEWMGRIDAGSGDTDYSHKFQARVAITRATSASTAYMELSSLTSEDTALYYCAKDYYGSGIYYLDSWGQGTPVTVSS
chain 2: DIQMTQSPSSLSASVGDRITITCRASQSINYYLNWYQQKPGKAPKLLIYAASSLQSGVPSRFSGSGSGTDFTLTISSLQPEDFATYFCHQTYTTLWTFGQGTKVEMK

What follows are binders tested against SARS-CoV-2 Omicron BA.1 spike pseudovirus (assay: pseudovirus neutralization IC50; higher = weaker neutralization).
Protocol: (§1)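 Single-round VSV luciferase pseudovirus mixed with antibody dilutions for 1 h and put on Huh-7 cells for about a day; IC50 from the dose curve.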
For B1, the “pseudovirus neutralization IC50” value was greater than 10 µg/mL. For B2, the “pseudovirus neutralization IC50” value was 2.76 µg/mL. For B3, the “pseudovirus neutralization IC50” value was greater than 10 µg/mL. In the case of B4, the “pseudovirus neutralization IC50” value is reported as greater than 10 µg/mL. With B5 the “pseudovirus neutralization IC50” value was greater than 10 µg/mL. B6 was tested, and the “pseudovirus neutralization IC50” value was greater than 10 µg/mL.

The binders below were run against SARS-CoV-2 Omicron BA.2 spike pseudovirus in the same assay as above.
Protocol: as §1
In the case of B1, the “pseudovirus neutralization IC50” value is reported as greater than 10 µg/mL. With B2 the “pseudovirus neutralization IC50” value was 4.82 µg/mL. In the case of B3, the “pseudovirus neutralization IC50” value is reported as greater than 10 µg/mL. B4 was tested, and the “pseudovirus neutralization IC50” value was greater than 10 µg/mL. For B5, the “pseudovirus neutralization IC50” value was greater than 10 µg/mL. B6 was tested, and the “pseudovirus neutralization IC50” value was greater than 10 µg/mL.

Each binder was assayed against SARS-CoV-2 Omicron BA.2.75 spike pseudovirus in the same assay as above.
Protocol: as §1
For B1, the “pseudovirus neutralization IC50” value was greater than 10 µg/mL. For B2, the “pseudovirus neutralization IC50” value was 4.83 µg/mL. In the case of B3, the “pseudovirus neutralization IC50” value is reported as greater than 10 µg/mL. B4 was tested, and the “pseudovirus neutralization IC50” value was greater than 10 µg/mL. In the case of B5, the “pseudovirus neutralization IC50” value is reported as greater than 10 µg/mL. B6 was tested, and the “pseudovirus neutralization IC50” value was greater than 10 µg/mL.

The binders below were run against SARS-CoV-2 Omicron BA.5 spike pseudovirus in the same assay as above.
Protocol: as §1
In the case of B1, the “pseudovirus neutralization IC50” value is reported as greater than 10 µg/mL. In the case of B2, the “pseudovirus neutralization IC50” value is reported as 3.27 µg/mL. For B3, the “pseudovirus neutralization IC50” value was greater than 10 µg/mL. In the case of B4, the “pseudovirus neutralization IC50” value is reported as greater than 10 µg/mL. B5 was tested, and the “pseudovirus neutralization IC50” value was greater than 10 µg/mL. B6 was tested, and the “pseudovirus neutralization IC50” value was greater than 10 µg/mL.

Each binder was assayed against SARS-CoV-2 Omicron BQ.1.1 spike pseudovirus in the same assay as above.
Protocol: as §1
With B1 the “pseudovirus neutralization IC50” value was greater than 10 µg/mL. In the case of B2, the “pseudovirus neutralization IC50” value is reported as 3.8 µg/mL. With B3 the “pseudovirus neutralization IC50” value was greater than 10 µg/mL. B4 was tested, and the “pseudovirus neutralization IC50” value was greater than 10 µg/mL. For B5, the “pseudovirus neutralization IC50” value was greater than 10 µg/mL. B6 was tested, and the “pseudovirus neutralization IC50” value was greater than 10 µg/mL.

Each binder was assayed against SARS-CoV-2 Omicron XBB spike pseudovirus in the same assay as above.
Protocol: as §1
With B1 the “pseudovirus neutralization IC50” value was greater than 10 µg/mL. With B2 the “pseudovirus neutralization IC50” value was 1.56 µg/mL. With B3 the “pseudovirus neutralization IC50” value was greater than 10 µg/mL. For B4, the “pseudovirus neutralization IC50” value was greater than 10 µg/mL. B5 was tested, and the “pseudovirus neutralization IC50” value was greater than 10 µg/mL. For B6, the “pseudovirus neutralization IC50” value was greater than 10 µg/mL.

These binders were tested against SARS-CoV-2 early D614G spike pseudovirus in the same assay as above.
Protocol: as §1
In the case of B1, the “pseudovirus neutralization IC50” value is reported as greater than 10 µg/mL. In the case of B2, the “pseudovirus neutralization IC50” value is reported as 1.91 µg/mL. For B3, the “pseudovirus neutralization IC50” value was greater than 10 µg/mL. In the case of B4, the “pseudovirus neutralization IC50” value is reported as greater than 10 µg/mL. With B5 the “pseudovirus neutralization IC50” value was greater than 10 µg/mL. B6 was tested, and the “pseudovirus neutralization IC50” value was greater than 10 µg/mL.
